Data published in PubChem BioAssay AID624173 (National Center for Advancing Translational Sciences (NCATS), 2012).
The list shows a part of the results, in another mix than the full data. Calls of active or inactive are those of the source. Calls come from the whole dose curve; as a rule, active = well fitted inhibition curve with a large enough effect; inconclusive = small, poorly fitted or top-dose-only effect; inactive = flat fitted curve, though single readings scatter.

Molecular target: pyruvate kinase (Trypanosoma brucei) (UniProt Q57TT1)
Test: qHTS of Trypanosoma Brucei Inhibitors; note: nearly all actives have a fitted effect of over 50% in size
Conditions: TbPYK enzyme, Kinase-Glo Plus ATP luminescence, 45 min; at 76.8 µM (top of the series)
% is set by controls: 0 for no effect and ±100 for the full control effect.

| SMILES | activity, negative = inhibition |
| --- | --- |
| CC(C)(C)OC(=O)N1CCC(N(C(=O)c2ccccc2)c2ccc(Cl)cc2)CC1 | inactive: 0.474% |
| O=C(NCC1(N2CCOCC2)CCCCC1)c1ccc([N+](=O)[O-])cc1 | inactive: -0.085% |
| O=C(NCC1(N2CCOCC2)CCCCC1)c1ccccc1[N+](=O)[O-] | inactive: -9.35% |
| N#Cc1ccc(C(=O)NCC2(N3CCCCC3)CCCCC2)cc1 | inactive: 2.38% |
| CCOC(=O)C(CC)C1=NC(C)(C)Cc2ccccc21.O=[N+]([O-])c1cc([N+](=O)[O-])c(O)c([N+](=O)[O-])c1 (centres undefined) | inactive: -2.5% |
| O=C(NCC1(N2CCOCC2)CCCCC1)c1ccccc1 | inactive: 1.26% |
| Cc1cc(N(CCCl)CCCl)ccc1C=O | inactive: -8.42% |
| CCCN1CCC(Nc2cc(OC)cc(OC)c2)CC1 | inactive: -2.59% |
| O=c1[nH]c2ccccc2n1C1CCN(C(c2ccccc2)c2nnnn2C2CCCC2)CC1 (centres undefined) | inactive: 1.4% |
| c1ccc(CN2CCC(Nc3ccccc3)CC2)cc1 | inactive: 1.43% |
| CN(C)C1(CNC(=O)c2cccc(C#N)c2)CCCCC1 | inactive: 8.44% |
| CC(C)(C)n1nnnc1C(c1cccc2ccccc12)N1CCC(n2c(=O)[nH]c3ccccc32)CC1 (centres undefined) | inactive: 2.89% |
| O=C(NCC1(N2CCOCC2)CCCCC1)c1cc(Br)ccc1Cl | inactive: -5.05% |
| COc1cc(C(=O)NCC2(N3CCOCC3)CCCCC2)cc(OC)c1C | inactive: 1.27% |
| CCCCn1nnnc1C(c1ccccc1)N1CCC(n2c(=O)[nH]c3ccccc32)CC1 (centres undefined) | inactive: 1.66% |
| O=c1[nH]c2ccccc2n1C1CCN(C(c2ccnc3ccccc23)c2nnnn2C2CCCC2)CC1 (centres undefined) | inactive: 1.12% |
| COc1ccc(C(=O)NCC2(N3CCOCC3)CCCCC2)cc1OC | inactive: 2.8% |
| O=c1[nH]c2ccccc2n1C1CCN(C(c2cccs2)c2nnnn2C2CCCCC2)CC1 (centres undefined) | inactive: 4.96% |
| N/C(=N\O)c1c(N)no[n+]1[O-] | inactive: -4.32% |
| CCOC(=O)N1CCC(Nc2ccc(C)cc2)CC1 | inactive: -10.2% |
| COc1cccc(C(c2nnnn2C(C)(C)C)N2CCC(n3c(=O)[nH]c4ccccc43)CC2)c1OC (centres undefined) | inactive: -6.96% |
| CCCCn1nnnc1C(c1cccc(OC)c1OC)N1CCC(n2c(=O)[nH]c3ccccc32)CC1 (centres undefined) | inactive: 4.51% |
| O=c1[nH]c2ccccc2n1C1CCN(C(c2cccs2)c2nnnn2C2CCCC2)CC1 (centres undefined) | inactive: -0.249% |
| O=C(O)c1cccc(Nc2c([N+](=O)[O-])cc([N+](=O)[O-])cc2[N+](=O)[O-])c1 | inactive: -0.0618% |

| SMILES | activity, negative = inhibition |
| --- | --- |
| CCc1cc(C(=O)NCC2(N3CCCCC3)CCCCC2)sc1C | inactive: -5.74% |
| O=C(OC1CN2CCC1CC2)C1c2ccccc2C=Cc2ccccc21 (centres undefined) | inactive: -1.08% |
| CN1CCC(Nc2ccc(F)c(Cl)c2)CC1 | inactive: -9% |
| CCOc1ncccc1C(=O)NCC1(N2CCOCC2)CCCCC1 | inactive: 6.47% |
| O=c1[nH]c2ccccc2n1C1CCN(C(c2cc3ccccc3o2)c2nnnn2C2CCCC2)CC1 (centres undefined) | inactive: -1.03% |
| CCCOc1ccc(C(=O)NCC2(N(C)C)CCCCC2)cc1 | inactive: 0.339% |
| NN(c1ccccc1)C1CCN(CCc2ccccc2)CC1 | inactive: -12.5% |
| O=C(O)C1(Nc2ccccc2)CCN(Cc2ccccc2)CC1 | inactive: 0% |
| CC(C)(C)OC(=O)N1CCC(Nc2ccccc2)CC1 | inactive: 5.01% |
| CCC(CO)(C(=O)OC1CN2CCC1CC2)c1ccccc1 (centres undefined) | inactive: -0.142% |
| COc1cccc(C(=O)N(c2cc(C)cc(C)c2)C2CCN(C(=O)OC(C)(C)C)CC2)c1 | inactive: -9.15% |
| COc1cc(OC)cc(C(=O)NCC2(N3CCOCC3)CCCCC2)c1 | inactive: -0.389% |
| COc1cccc(C(c2nnnn2C2CCCC2)N2CCC(n3c(=O)[nH]c4ccccc43)CC2)c1OC (centres undefined) | inactive: 3.69% |
| COc1cc(C(=O)NCC2(N3CCOCC3)CCCCC2)cc(OC)c1OC | inactive: -3.46% |
| CN1CCC(Nc2ccc(Cl)cc2)CC1 | inactive: 0.392% |
| COc1cc(OC)cc(C(=O)NCC2(N3CCCCC3)CCCCC2)c1 | inactive: 2.78% |
| O=c1[nH]c2ccccc2n1C1CCN(C(c2ccnc3ccccc23)c2nnnn2C2CCCCC2)CC1 (centres undefined) | inactive: -1.58% |
| CCC(c1nnnn1C1CCCCC1)N1CCC(n2c(=O)[nH]c3ccccc32)CC1 (centres undefined) | inactive: -6.53% |
| CN(C)C1(CNC(=O)c2ccc(C(C)(C)C)cc2)CCCCC1 | inactive: 2.75% |
| COc1cccc(C(c2nnnn2C2CCCCC2)N2CCC(n3c(=O)[nH]c4ccccc43)CC2)c1OC (centres undefined) | inactive: -4.91% |
| CC(=O)N(c1ccccc1)C1CCNCC1 | inactive: -7.12% |
| Cc1ccc(NC2(C#N)CCN(Cc3ccccc3)CC2)cc1 | inactive: -4.39% |
| Fc1ccccc1NC1CCN(Cc2ccccc2)CC1 | inactive: 14.3% |
| Cc1ccc(Nc2c([N+](=O)[O-])cc([N+](=O)[O-])cc2[N+](=O)[O-])cc1 | inactive: 1.95% |

| SMILES | activity, negative = inhibition |
| --- | --- |
| Cc1ccc(C(=O)NCC2(N3CCCCC3)CCCCC2)o1 | inactive: -0.777% |
| CCN1CCC(Nc2cccc(F)c2)CC1 | inactive: 24.9% |
| COc1ccc(C(c2nnnn2C2CCCCC2)N2CCC(n3c(=O)[nH]c4ccccc43)CC2)cc1 (centres undefined) | inactive: 2.51% |
| CC(C)(C)n1nnnc1C(c1ccnc2ccccc12)N1CCC(n2c(=O)[nH]c3ccccc32)CC1 (centres undefined) | inactive: 5.32% |
| Cc1ccccc1NC1(C#N)CCN(Cc2ccccc2)CC1 | inactive: -5.43% |
| CN(C)c1ccc(C(=O)NCC2(N3CCCCC3)CCCCC2)cc1 | inactive: 1.11% |
| Cn1c(=O)[nH]cc(N(CCCl)CCCl)c1=O | inactive: -5.55% |
| O=C(NCC1(N2CCCCC2)CCCCC1)c1ccco1 | inactive: -2.77% |
| CC(C)(C)c1ccc(C(=O)NCC2(N3CCOCC3)CCCCC2)cc1 | inactive: -0.445% |
| Cc1ccccc1C(=O)NCC1(N(C)C)CCCCC1 | inactive: -3.66% |
| CCOc1ccc(C)cc1CN(CCCl)CCCl | inactive: -2.13% |
| O=C1CCN(Cc2ccccc2)CC1 | inactive: 3.9% |
| O=C(NCC1(N2CCOCC2)CCCCC1)c1ccc(Cl)cc1 | inactive: 4.59% |
| CC(C)(C)n1nnnc1C(c1ccccc1)N1CCC(n2c(=O)[nH]c3ccccc32)CC1 (centres undefined) | inactive: 2.59% |
| CCOC(=O)N1CCC(Nc2ccc(F)cc2)CC1 | inactive: 4.57% |
| COc1ccc(NC2CCN(CCc3ccccc3)CC2)c(OC)c1 | inactive: -18.1% |
| CCCCOc1ccc(C(=O)NCC2(N3CCOCC3)CCCCC2)cc1 | inactive: -0.113% |
| CCCCn1nnnc1C(c1cc2ccccc2o1)N1CCC(n2c(=O)[nH]c3ccccc32)CC1 (centres undefined) | inactive: -0.0272% |
| O=P1(N(CCCl)CCCl)SCCCS1 | inactive: -4.42% |
| O=C(NCC1(N2CCCCC2)CCCCC1)c1ccc(F)cc1 | inactive: -9.65% |
| COc1ccccc1C(=O)NCC1(N2CCOCC2)CCCCC1 | inactive: -1.35% |
| O=c1[nH]c2ccccc2n1C1CCN(C(c2ccccc2)c2nnnn2C2CCCCC2)CC1 (centres undefined) | inactive: 2.19% |
| O=c1[nH]c2ccccc2n1C1CCN(C(c2cccc3ccccc23)c2nnnn2C2CCCC2)CC1 (centres undefined) | inactive: -0.793% |
| CCOC(=O)N1CCC(Nc2cccc(C)c2)CC1 | inactive: -0.488% |

| SMILES | activity, negative = inhibition |
| --- | --- |
| COc1cc(C(=O)NCC2(N(C)C)CCCCC2)ccc1OC(F)F | inactive: 1.18% |
| O=C(NCC1(N2CCCCC2)CCCCC1)c1cccs1 | inactive: -3.47% |
| CCCCn1nnnc1C(CC)N1CCC(n2c(=O)[nH]c3ccccc32)CC1 (centres undefined) | inactive: 5.57% |
| CCCCn1nnnc1C(c1cccs1)N1CCC(n2c(=O)[nH]c3ccccc32)CC1 (centres undefined) | inactive: 5.43% |
| O=C(NCC1(N2CCCCC2)CCCCC1)c1ccc(=O)[nH]c1 | inactive: 2.76% |
| CC(C)(C)OC(=O)N1CCC(N(C(=O)c2ccccc2)c2ccc(F)cc2)CC1 | inactive: -1.3% |
| COc1ccc(C(=O)NCC2(N3CCCCC3)CCCCC2)c(OC)c1OC | inactive: -1.57% |
| CCC(c1nnnn1C1CCCC1)N1CCC(n2c(=O)[nH]c3ccccc32)CC1 (centres undefined) | inactive: -3.9% |
| COc1ccc(C(=O)NCC2(N3CCCCC3)CCCCC2)cc1 | inactive: 1.48% |
| Cc1cccc(NC2(C#N)CCN(Cc3ccccc3)CC2)c1 | inactive: 5.02% |
| CSc1ccccc1C(=O)NCC1(N2CCCCC2)CCCCC1 | inactive: -2.01% |
| O=C(NCC1(N2CCOCC2)CCCCC1)c1cc2ccccc2o1 | inactive: -10.7% |
| Cc1cc(C)cc(N(C(=O)c2ccccc2)C2CCN(C(=O)OC(C)(C)C)CC2)c1 | inactive: 2.84% |
| O=C(NCC1(N2CCCCC2)CCCCC1)c1ccc(Cl)nc1 | inactive: 3.5% |
| O=c1[nH]c2ccccc2n1C1CCN(C(c2ccccc2OC(F)(F)F)c2nnnn2C2CCCCC2)CC1 (centres undefined) | inactive: 2.67% |
| CCCCn1nnnc1C(c1ccc(OC)cc1)N1CCC(n2c(=O)[nH]c3ccccc32)CC1 (centres undefined) | inactive: 3.84% |
| CCOC(=O)N1CCC(Nc2ccc(OC)cc2)CC1 | inactive: -8.83% |
| COc1ccc(Cl)cc1C(=O)NCC1(N2CCOCC2)CCCCC1 | inactive: -2.36% |
| O=C1C(O)=C([N+](=O)[O-])C(=O)C(O)=C1[N+](=O)[O-] | inactive: 5.9% |
| O=C(NCC1(N2CCCCC2)CCCCC1)c1ccc(Cl)s1 | inactive: -3.69% |
| N#CC1(Nc2ccccc2)CCN(Cc2ccccc2)CC1 | inactive: 9.34% |
| O=c1[nH]c2ccccc2n1C1CCN(C(c2cc3ccccc3o2)c2nnnn2C2CCCCC2)CC1 (centres undefined) | inactive: 1.04% |
